Results on one molecule are retold here after patent US8361473B2, “Antibodies and their uses for diagnosis and treatment of cytomegalovirus infection and associated diseases” (priority 2007, dated 2013).

For the assay, the system named is HLA-A2/pp65 495-503 complexes in fibroblasts infected with CMV AD169 or RV798. Kind of assay: Kinetic flow cytometry of HLA-A2/pp65 complex expression, intracellular and extracellular staining. Type of assay: cell-based, human. Particulars: inside or on the surface, 120 hours.

B1: H9 IgG Ab: whole IgG molecule made from recombinant H9 Fab, produced in HEK293 cells (antibody)
heavy: EVQLVQSGAEVKKPGSSVKVSCKASGGTFSSYAISWVRQAPGQGLEWMGGIIPIFGTANYAQKFQGRVTITADESTSTAYMELSSLRSEDTAVYYCARGDLYYYDSSGYPRYYFDYWGQGTLVTVSSASTKGPSVFPLAPSSKSTSGGTAALGCLVKDYFPEPVTVSWNSGALTSGVHTFPAVLQSSGLYSLSSVVTVPSSSLGTQTYICNVNHKPSNTKVDKKVEPKSC
light: LETTLTQSPGTLSLSPGERATLSCRASQSVSSSYLAWYQQKPGQAPRLVIYGASSRATGIPDRFSGSGSGTDFTLTISRLEPEDFAVYYCQHYSTSPGFTFGQGTKLEIRRTVAAPSVFIFPPSDEQLKSGTASVVCLLNNFYPREAKVQWKVDNALQSGNSQESVTEQDSKDSTYSLSSHQGLSSPVTKSFNRGEC
modifications: left off: a dimerising Fc or GST
For B1, the “reactivity with HLA-A2 negative fibroblasts infected with wild-type CMV” value is reported as “no reactivity”.
